Measured values from several laboratories, pooled; numbers as filed in NIAID ChemDB.

Shared fields: enzyme or target tests

Inhibition is in % at the dose shown (toxicity tests: loss of growth or viability). ICn: concentration for n% inhibition. Blank or dashed fields: not listed here. Rows are shuffled and stem from different studies.

| smiles | protein | agent | strain or isolate | read-out | dose | read by | result |
|---|---|---|---|---|---|---|---|
| CC(=O)N[C@H]1[C@H](Oc2ccc([N+](=O)[O-])cc2)O[C@H](OS(=O)(=O)O)[C@@H](O)[C@@H]1O | Sialidase | Influenza A virus | H3N2 MEMPH/1/71 | IC50 |  | fluorescence | 2800 µM |
| C[C@H](CO)[C@@H](OC(=O)NCCCCNCCN)[C@@H]1OC(C(=O)O)=C[C@H](N=C(N)N)[C@H]1NC(=O)O | Sialidase | Influenza A virus | H3N2 AICHI | IC50 |  |  | 0.077 µM |
| O=C(NO)c1ccccn1 | RNA-dependent RNA polymerase | Influenza A virus |  | IC50 |  |  | >7500 µM |
| CCN(CC)C(=O)[C@@H]1C=C(C(=O)O)CC[C@H]1NC(C)=O | Influenza virus sialidases | Influenza B virus | Victoria | IC50 |  | fluorescence | 23 µM |
| CC(C)N(C(=O)O[C@@H]([C@@H]1OC(C(=O)O)=C[C@H](N)[C@H]1NC(=O)O)[C@H](C)CO)C(C)C | Sialidase | Influenza B virus | Victoria | IC50 |  |  | 24 µM |
| O=C(NO)c1ccc[nH]c1=O | RNA-dependent RNA polymerase | Influenza A virus |  | IC50 |  |  | >6500 µM |
| CCC(CC)[C@H](NC(C)=O)[C@@H]1[C@H](O)[C@@H](C(=O)O)C[C@H]1N=C(N)N | Influenza virus neuraminidase | Influenza A virus | Influenza A/Shandong/09/03 (H3N2) | IC50 |  |  | 0.4 µM |
| CCCCCCCCCCCCCCCCCC(=O)OC[C@@H](COP(=O)(O)OCCNCCO[C@@]1(C(=O)O)O[C@@H]([C@H](O)[C@H](O)CO)[C@H](NC(C)=O)[C@@H](O)[C@H]1F)OC(=O)CCCCCCCCCCCCCCCCC | Sialidase | Influenza A virus | H1N1 A/PR/8/34 | IC50 |  |  | 62.5 µM |
| C[C@H](CO)[C@@H](OC(N)=O)[C@@H]1OC(C(=O)O)=C[C@H](N)[C@H]1NC(=O)O | Sialidase | Influenza A virus | H3N2 AICHI | IC50 |  |  | 0.32 µM |
| CC(=O)N[C@H]1[C@H](Oc2ccc3ccccc3c2)O[C@H](OS(=O)(=O)O)[C@@H](O)[C@@H]1O | Sialidase | Influenza A virus | H3N2 MEMPH/1/71 | IC50 |  | fluorescence | 110 µM |
| C[C@H](CO)[C@@H](OC(N)=O)[C@@H]1OC(C(=O)O)=C[C@H](N=C(N)N)[C@H]1NC(=O)O | Sialidase | Influenza B virus | Victoria | IC50 |  |  | 0.004 µM |
| CC(=O)N[C@H]1[C@H](Oc2cccc3ccccc23)O[C@H](OS(=O)(=O)O)[C@@H](O)[C@@H]1O | Sialidase | Influenza A virus | H3N2 MEMPH/1/71 | IC50 |  | fluorescence | 10 µM |
| O=c1[nH]c2cc3ccccc3cc2c(=O)n1O | RNA-dependent RNA polymerase | Influenza A virus |  | IC50 |  |  | >50 µM |
| COCON1C(=O)C(CC(C)C)=N/C(=C\C(C)C)C1=O | Transcriptase | Influenza A virus | A/PR/8/34 | IC50 |  |  | >355 µM |
| O=C(O)C(=O)CC(=O)C1(Cc2ccc(Cl)cc2)CCCN(Cc2ccccc2)C1 | Endonuclease | Influenza B virus |  | IC50 |  |  | 1.8 µM |
| O=C(NO)c1ncc[nH]c1=O | RNA-dependent RNA polymerase | Influenza A virus |  | IC50 |  |  | >6500 µM |
| CCN(CC)C(=O)[C@@H]1C=C(C(=O)O)OC[C@H]1NC(C)=O | Influenza virus sialidases | Influenza A virus | AICHI N2 | IC50 |  | fluorescence | 1.5 µM |
| CCN(C(=O)N1C[C@H](N)[C@](O)(C(=O)O)C1)C(C)C | Neuraminidase | Influenza B virus | Memphis/3/89 | Ki |  |  | 210 µM |
| O=C(NO)c1nc2ccccc2cc1O | RNA-dependent RNA polymerase | Influenza A virus |  | IC50 |  |  | 40 µM |
| CCCCCCCCCCCCC/C=C/[C@@H](O)[C@H](CO[C@@H]1O[C@H](CO)[C@H](O)[C@H](OS(=O)(=O)O)[C@H]1O)NC(=O)CCCCCCCCCCCCCCCCCCCCCCC | Sialidase | Influenza A virus | H3N2 A/TEXAS/1/77 | inhibition | 200 µM |  | 98.4% |
| O=C(NO)c1c[nH]ccc1=O | RNA-dependent RNA polymerase | Influenza A virus |  | IC50 |  |  | >6500 µM |
| CCCCCCCNC(=O)O[C@@H]([C@@H]1OC(C(=O)O)=C[C@H](N)[C@H]1NC(=O)O)[C@H](C)CO | Sialidase | Influenza B virus | Victoria | IC50 |  |  | 1.95 µM |
| CCCCCCCCCCCCCCCCCC(=O)OC[C@@H](COP(=O)(O)OCCNCCO[C@@]1(C(=O)O)O[C@@H]([C@H](O)[C@H](O)CO)[C@H](NC(C)=O)[C@@H](O)[C@H]1F)OC(=O)CCCCCCCCCCCCCCCCC | Sialidase | Influenza A virus | H1N1 A/PR/8/34 | IC50 |  |  | 62.5 µM |
| CC(=O)N[C@H](CC(=O)C(=O)O)[C@@H](O)[C@H](O)[C@H](O)CO | Neuraminidase | Influenza A virus |  | Ki |  |  | 300 µM |

The last 2 rows once more:

smiles | protein | agent | strain or isolate | read-out | dose | read by | result
CCCCCCCCCCCCCCCCCC(=O)OC[C@@H](COP(=O)(O)OCCNCCO[C@@]1(C(=O)O)O[C@@H]([C@H](O)[C@H](O)CO)[C@H](NC(C)=O)[C@@H](O)[C@H]1F)OC(=O)CCCCCCCCCCCCCCCCC | Sialidase | Influenza A virus | H1N1 A/PR/8/34 | IC50 |  |  | 62.5 µM
CC(=O)N[C@H](CC(=O)C(=O)O)[C@@H](O)[C@H](O)[C@H](O)CO | Neuraminidase | Influenza A virus |  | Ki |  |  | 300 µM